Measured values from patent publication US20120040030A1, “HERBAL-BASED NASAL SOLUTION AND METHOD OF USE THEREOF” (published 2012).

System: human nasal polyp tissue
Test: cytokine release, spontaneous and after Staphylococcus enterotoxin B (SEB) stimulation, ex-vivo tissue fragments
Conditions: about 24 hours

## CCC(=O)O[C@]1(C(=O)SCF)[C@H](C)C[C@H]2[C@@H]3C[C@H](F)C4=CC(=O)C=C[C@]4(C)[C@@]3(F)[C@@H](O)C[C@@]21C
FIG. 11
  impact on IL-10 release: substantially minimal impact
FIG. 13
  impact on TGF-β release: substantially little impact
About 0.5 μg/ml SEB, supernatant, FIG. 3
  SEB-stimulated release of IL-2: only partially inhibited
About 0.5 μg/ml SEB, supernatant, FIG. 4
  SEB-stimulated release of IFN-γ: only partially inhibited
About 0.5 μg/ml SEB, supernatant, FIG. 5
  SEB-stimulated release of IL-4: substantially inhibited
About 0.5 μg/ml SEB, supernatant, FIG. 6
  SEB-induced release of IL-5: substantially inhibited
About 0.5 μg/ml SEB, supernatant, FIG. 7
  SEB-induced release of IL-13: substantially inhibited
About 0.5 μg/ml SEB, supernatant, FIG. 8
  SEB-stimulated release of IL-17: only partially inhibited
About 0.5 μg/ml SEB, supernatant, FIG. 9
  SEB-induced release of IL-1β: hardly inhibited
About 0.5 μg/ml SEB, supernatant, FIG. 10
  SEB-stimulated release of TNF-α: not inhibited
About 0.5 μg/ml SEB, supernatant, FIG. 12
  SEB-stimulated release of IL-12 p70: substantially inhibited
